Tags and fusion partners may be left off the protein sequences shown. The exact form of at least one protein or probe is not confirmed. Weaker means in comparison with the reference protein, sequence or condition of that experiment. At least one verdict was read from the data and is not stated in words by the source.

The target of this data set is T1, HU (Neisseria gonorrhoeae) (UniProt Q5F8J6).
T1 sequence (looked up, limits assumed): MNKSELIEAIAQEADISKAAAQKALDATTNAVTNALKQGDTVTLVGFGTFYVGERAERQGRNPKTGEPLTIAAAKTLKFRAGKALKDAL
The experiment in a line: EMSA. The following applies: 20 mM Tris-HCl pH 8.0, 7% glycerol, 40 mM NaCl (dsDNA length series, 200 nM DNA, gel 50 mM Tris-borate) or 150 mM NaCl, recombinant protein, protein details: N-terminal 6xHisTEV removed by TEV protease. In general terms: Mobility shift assays separate free from complexed probe on a gel.

Where [1] appears, read: 150 mM NaCl, label: 5'-HEX on strand 1, folded or branched DNA.

In the case of “AGTCTAGAGTGCAGTTGAGTCCT (double strand) [D23 dsDNA]”, the binding result (40 mM NaCl, label: 5'-HEX) is listed as “binds”. As to “AGTCTAGAGTGCAGTTGAGTCCTTG (double strand) [D25 dsDNA]”, the binding result (40 mM NaCl, label: 5'-HEX) is reported as “binds”. As to “AGTCTAGAGTGCAGTTGAGTCCTTGCTAC (double strand) [D29 dsDNA]”, the binding result (40 mM NaCl, label: 5'-HEX) was “binds”. Still for that read-out and setting: the same measure for “AGTCTAGAGTGCAGTTGAGTCCTTGCTACGACG (double strand) [D33 dsDNA]”: “binds”. “AGTCTAGAGTGCAGTTGAGTCCTTGCTACGACGGATCCCTTAGGTCAG (double strand) [D48 dsDNA (ds)]”: the binding result runs as follows: (40 mM NaCl, 4 complexes, label: 5'-HEX on strand 1) “binds”; (150 mM NaCl, smear, label: 5'-HEX on strand 1) “binds more weakly”. As to “AGTCTAGAGTGCAGTTGAGTCCTTGCTACGACGGATCCCTTAGGTCAG / ACTCAACTGCACTCTAGACT [overhang (ov)]”, the binding result under setting [1] is on record as “binds”. With “AGTCTAGAGTGCAGTTGAGTCCTTGCTACGACGGATCCCTTAGGTCAG / CTGACCTAAGGGATCCGTCGTAGCAAGAAAAAAAGACTCAACTGCACTCTAGACT [bulge A7]”, under setting [1], the binding result is on record as “binds”.

As to “AGTCTAGAGTGCAGTTGAGTCCTTGCTACGACGGATCCCTTAGGTCAG / CTGACCTAAGGGATCCGTCGTAGCAAGAAAGACTCAACTGCACTCTAGACT [bulge A3]”, the binding result (150 mM NaCl, among lowest affinities, label: 5'-HEX on strand 1, folded or branched DNA) is on record as “binds more weakly”. With “AGTCTAGAGTGCAGTTGAGTCCTTGCTACGACGGATCCCTTAGGTCAG / CTGACCTAAGGGATCCGTCGTAGCAAGG / ACTCAACTGCACTCTAGACT [nicked DNA (n)]”, the binding result (150 mM NaCl, weaker than junction, label: 5'-HEX on strand 1, folded or branched DNA) is listed as “binds more weakly”.

On to “GTCTAGAGTGCAGTTGAGTCCTTGCTACGA (double strand) [D31 dsDNA]”, for which the binding result (40 mM NaCl, label: 5'-HEX) is reported as “binds”.

These data come from paper PMC5683647, “Comparison of histone-like HU protein DNA-binding properties and HU/IHF protein sequence alignment”.
